Common to all, as to assay: LCO production by B. japonicum USDA 110 (butanol extraction, HPLC)
What all share (type): cell-based, Bradyrhizobium japonicum

The test system of data set [1] is B. japonicum USDA 110. Conditions: factor levels 0 and 20 μM. Here is the method: (§1) Cultures of B. japonicum (strain USDA 110) were grown at 28° C. in 600 ml of sterile yeast mannitol medium (YEM) at pH 6.8. The culture was shaken at 150 rpm until an OD620 of 0.4 to 0.6 was achieved (4 to 6 days). When the culture reached this stage, it was divided equally into four flasks (150 mL) and specific concentrations of JA and genistein were added to the cultures.
(§2) One hundred and fifty mL of each culture were extracted with 40 mL of the HPLC-grade butanol (Fisher Science Ltd., 112 Colonnade Road, Nepean, ON, Canada) by shaking together for 5 minutes. The two phases were then allowed to separate by leaving the mixture to stand overnight. The upper layer (butanol) was collected with a glass pipette and 25 mL were placed in a 250 ml evaporation flask. LCO extract solutions were stored at 4° C. until evaporation. This step was conducted at 80° C. with a Yamato RE 500 Rotary Evaporator (Yamato Scientific American Inc., Orangeburge, N.Y., USA). The butanol phase was evaporated down to 2 to 3 mL. The resulting light brown material was dissolved in 4 ml of 18% acetonitrile and stored in the dark at 4° C. in a glass tube sealed with parafilm.
For HPLC analysis we used a Vydac C18 reversed—phase column (VYDAC, Hesperia, Calif., USA) with a flow rate of 1.0 mL/min and a Vydac guard column (VYDAC, Hesperia, Calif., USA). We used at least 10 min. of isocratic run with 18% acetonitrile (AcN/H2O; w/w) to establish a baseline. The baseline value was always about 0.010. When a sample was loaded we conducted an isocratic elution with 18% AcN for 45 min. This step removed all non-polar light fractions. We then applied a gradient elution (18 to 82% AcN) for 70 min. LCOs begin to appear at 84 to 86 min of HPLC run time. We used B. japonicum Nod factor (BjV (C18:1, MeFuc)) obtained from G. Stacey (University of Tennessee, Knoxville, Tenn.) as a standard. The identity of the LCO was confirmed by the Complex Carbohydrate Research Center at the University of Georgia with FAB-MS and MALDI-TOF spectrometry analysis.
There were two experiments conducted. In the first the treatments consisted of factorial combinations of two concentrations (0 and 20 μM) of two signal materials (JA and genistein (zhang and Smith, 1995)). The experiment was organized following a randomized complete block design with three blocks. In experiment 1, two temperatures were used (17 and 25° C.). The LCO was extracted 10 h after the addition of the signal compounds. Experiment 2 was generally like experiment one except that only one temperature, 17° C. was used and LCO was extracted at 5, 10, 20 hour after JA and genistein were added.
(§3) Each of the above experiments was conducted two times and the experimental results were pooled and analyzed statistically by analysis of variance using the Statistical Analysis System computer package (SAS Institute Inc. 1980). […] Since the effects of temperature on growth were very large, the data from two temperatures used in the first experiment were analyzed separately.

Data set [2] concerns B. japonicum USDA 110. Also noted: key: **: differences at the 0.05 probability level; NS: not significant at P < 0.11. Conditions: 25° C.; analysis of variance; factor levels 0 and 20 μM. How it is done: as §1
as §2, with “The resulting light brown material was dissolved in 4 ml of 18% acetonitrile and stored in the dark at 4° C. in a glass tube sealed with parafilm.” left out
as §3

The subject of data set [3] is B. japonicum USDA 110. Set-up: key: **, NS indicates differences at the 0.05 probability level; **, NS indicates differences at the 0.05 probability level. Conditions: 20 hour; 17° C.; factor levels 0 and 20 μM. Here is the method: as §1
as §2, with “The resulting light brown material was dissolved in 4 ml of 18% acetonitrile and stored in the dark at 4° C. in a glass tube sealed with parafilm.” left out
as §3

Structures are written as SMILES.

The values below come from US7262151B2, “Methods and compositions for production of lipo-chito oligosaccharides by rhizobacteria” (McGill University, priority 2001, dated 2007).

Consider `O=c1c(-c2ccc(O)cc2)coc2cc(O)cc(O)c12` [GEN, 5,7,4′-trihydroxyisoflavone], for which the “significance of factor effect on LCO production” value in data set [1] (17° C., analysis of variance) is on record as “** (differences at the 0.05 probability level)”; in data set [1] (25° C., analysis of variance), “** (differences at the 0.05 probability level)”; in data set [1] (5 hour, 17° C.) it was “** (**, NS indicates differences at the 0.05 probability level)”; in data set [1] (10 hour, 17° C.), “** (**, NS indicates differences at the 0.05 probability level)”; in data set [1] (20 hour, 17° C.), “** (**, NS indicates differences at the 0.05 probability level)”.
Regarding `CC/C=C\C[C@H]1C(=O)CC[C@@H]1CC(=O)O` [JA, [1R-[1α,2β(Z)]]-3-oxo-2-(pentenyl)cyclopentaneacetic acid], the “significance of factor effect on LCO production” value is “NS” in data set [2]; “** (differences at the 0.05 probability level)” in data set [1] (17° C., analysis of variance); “** (**, NS indicates differences at the 0.05 probability level)” in data set [1] (5 hour, 17° C.); “** (**, NS indicates differences at the 0.05 probability level)” in data set [1] (10 hour, 17° C.); “NS” in data set [3].
